Assay results: article PMC10269650

System: MBP-Sin3 (Magnaporthe oryzae)
Test: EMSA
Conditions: recombinant protein, protein details: MBP (N-terminal, pMAL-c5X)

Row | Sequence | binding result (label: biotin (both strands)) | binding result (label: biotin (F strand, R name lacks biotin))
1 | GATGATGGCTCCGGATAAGAGGGCGCTGCAGATGCATCCATCTATCGGTAGTCTGCTTGGGTTGGAAGGCTTATTTTGTTGTTCTTTTTTCTTGGTACTG (double strand) [ATG13 promoter probe] | binds | –
2 | ACTGACACGAATGCAGCCTTTTGACAGAAGTCAACCTTCCTAGGCCACAAAACTCTTATTACTCTGCTTGCTCGGTCCTAGATCTGGACGTACAGTAGGT (double strand) [ATG1 promoter probe] | – | binds
3 | TGGCAGAGGGTTTCTGCGCGTTGGACCGGGGCGCACCTGAAGACTGCCCATCGTTCAGTTGGCGCTGCCGGTTGTAGGTTTTGGTTAGGTCGCCGGTTGT (double strand) [ATG17 promoter probe] | binds | –

The exact form of at least one protein or probe is not confirmed.
